Compound potency records, mixed from different reports. Data source: NIAID ChemDB in PubChem.

All rows: whole-cell or culture tests; organism: Rhinovirus

Inhibition is in % at the dose shown (toxicity tests: loss of growth or viability). Neighbouring rows are from separate reports. ECn: concentration that inhibits the pathogen or its effect by n%.

COc1ccc(CNC(=O)c2c(O)cc(OCC=C(C)C)cc2OC)cc1 ; strain: TYPE 2 ; cell line: HeLa ; method: cytopathic effect ; measure: EC50 ; result: 0.002 µg/mL
S=C(S)N1CCCC1 ; strain: TYPE 14 ; cell line: HeLa ; measure: EC50 ; result: >31 µM
O=c1c2ccccc2ccc2ccccc12 ; dose: 50 µM ; strain: TYPE 16 ; cell line: HELA-H1 ; method: plaque count ; measure: inhibition ; result: 100%
O=C(O)Cc1csc(/N=C2\SCC3Cc4ccccc4CN23)n1 ; strain: TYPE 3 ; measure: MIC ; result: 3 µg/mL
CN1CCC2(C1)C1CCCC2CCC1 ; dose: 100 µM ; cell line: HeLa ; measure: inhibition ; result: <20%
C#CC[C@@H](C(=O)N[C@H](/C=C/C(=O)OCC)C[C@@H]1CCNC1=O)n1cccc(NC(=O)c2cc(C)on2)c1=O ; dose: 0.117 µM ; strain: Serotype 73 ; cell line: H1-HELA ; method: cytopathic effect / XTT ; measure: inhibition ; result: 90%
CN1CCC2(C1)C1CC3CC(C1)CC2C3 ; dose: 100 µM ; cell line: HeLa ; measure: inhibition ; result: >70%
CCOc1cc(O)c(C(=O)NCc2ccc(OC)cc2)c(OC)c1 ; strain: TYPE 9 ; cell line: HeLa ; method: cytopathic effect ; measure: EC50 ; result: 0.063 µg/mL
Oc1ccc2oc3ccccc3c2c1 ; dose: 50 µM ; strain: TYPE 16 ; cell line: HELA-H1 ; method: plaque count ; measure: inhibition ; result: 93%
NC12CC3CC(CC(C3)C1)C2 ; dose: 100 µM ; cell line: HeLa ; measure: inhibition ; result: <20%
CC(C)S(=O)(=O)n1c(N)nc2ccc(/C(=N/O)c3ccccc3)cc21 ; strain: Serotype 50 ; cell line: HeLa ; method: plaque count ; measure: EC50 ; result: <0.01 µg/mL
NC(=O)c1ncn([C@@H]2O[C@H](CO)[C@@H](O)[C@H]2O)n1 ; strain: TYPE 9 ; cell line: HeLa ; method: cytopathic effect ; measure: EC50 ; result: >8 µg/mL
Cc1c(C)c2c(c(C)c1O)CCC(C)(C(=O)O)O2 ; dose: 31 µM ; cell line: HeLa ; measure: inhibition ; result: 80%
Cc1cccc(N2CCN(c3ccc(Br)nn3)CC2)c1 ; strain: TYPE 9 ; cell line: HeLa ; method: cytopathic effect ; measure: EC50 ; result: 0.13 µg/mL
CCO/N=C/c1ccc(OCCC2CCN(c3ccc(C)nn3)CC2)cc1 ; strain: 1983-CV48 (ICAM-1 receptor group 66) ; cell line: KB ; method: neutral red ; measure: EC50 ; result: 0.001 µM
CCN1CCC2(C1)C1CC3CC(C1)CC2C3 ; dose: 100 µM ; cell line: HeLa ; measure: inhibition ; result: >70%
O=C(O)c1cc2oc3ccccc3c2cc1O ; dose: 100 µM ; strain: TYPE 16 ; cell line: HELA-H1 ; method: plaque count ; measure: inhibition ; result: 100%
N=C(N)CCNC(=O)C1CCC(N)=N1 ; strain: TYPE 2 ; measure: MIC ; result: 6 µg/mL
NC(=O)c1c[se]c([C@@H]2O[C@H](CO)[C@@H](O)[C@H]2O)n1 ; strain: TYPE 9 ; cell line: HeLa ; method: cytopathic effect ; measure: EC50 ; result: >4 µg/mL

The first 2 rows once more:

COc1ccc(CNC(=O)c2c(O)cc(OCC=C(C)C)cc2OC)cc1 ; strain: TYPE 2 ; cell line: HeLa ; method: cytopathic effect ; measure: EC50 ; result: 0.002 µg/mL
S=C(S)N1CCCC1 ; strain: TYPE 14 ; cell line: HeLa ; measure: EC50 ; result: >31 µM